Data as given in PubChem BioAssay AID504761 (Drosophila RNAi Screening Center, 2011)
Aim: 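Insect host genes that dengue virus relies on to spread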 (primary screen). System: D.Mel-2 cells from Drosophila. Reagents: long dsRNA against Drosophila genes. Conditions: infection with dengue virus type 2; dose and infection time not stated. Measured: 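Per well on two replicate plates, imaging gave the percent of cells positive for viral envelope protein, ranked by infection, and a nuclear count of cells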. Reading the numbers: infection score: higher = more virus-infected cells; cell count: higher = more cells in the well. Hit rule: 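Very low infection ranking in both replicate wells (chance probability at most 0.065), then a retest showing infection dropped 1.5-fold or more at p below 0.05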. Calls: active = confirmed: knock-down lowers infection; inactive = not picked or not confirmed.
The screen tested about 22,000 reagents; shown is a random part of those that have a named target and a result. In the full data, 116 (0.52%) got an active call. 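Calls depend on retest data that are not deposited; infection was ranked per plate without normalising between plates; the unit of the infection score is not given.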 Raw values vary from plate to plate and are shown uncorrected. A number with no mark means an inactive call. Further read-outs or replicates are left out here. Not stated in the record: the amount of reagent, the time to read-out.

For TfIIEalpha (Transcription factor IIEalpha) [DRSC11303], the entry reads infection score, replicate 1 = 8.54; cell count, replicate 1 = 6613. For TfIIEalpha (Transcription factor IIEalpha) [DRSC27748], the values are infection score, replicate 1 = 22.4; cell count, replicate 1 = 6148. Against CG13405 [DRSC08310], the values are infection score, replicate 1 = 3.95; cell count, replicate 1 = 6151. CG13405 [DRSC27289] scored infection score, replicate 1 = 29.6; cell count, replicate 1 = 6441. With knock-down of Kdsr (3-ketodihydrosphingosine reductase) [DRSC14245], the screen gave infection score, replicate 1 = 16.7; cell count, replicate 1 = 6591. After knock-down of Pect (Phosphoethanolamine cytidylyltransferase) [DRSC02867], the record shows infection score, replicate 1 = 2.78; cell count, replicate 1 = 6582.

After knock-down of Pect (Phosphoethanolamine cytidylyltransferase) [DRSC02868], the screen gave infection score, replicate 1 = 5.13; cell count, replicate 1 = 4564. Against blw (bellwether) [DRSC04675], the values are infection score, replicate 1 = 7.67; cell count, replicate 1 = 5293. CG4291 [DRSC00650] scored infection score, replicate 1 = 3.84; cell count, replicate 1 = 6534. Silencing of CG4291 [DRSC28410] gave: cell count, replicate 1 = 358. SCaMC [DRSC10293] showed infection score, replicate 1 = 10.8; cell count, replicate 1 = 5762. After knock-down of SCaMC [DRSC10415], the record shows infection score, replicate 1 = 4.7; cell count, replicate 1 = 5982.

Against SCaMC [DRSC28518] the deposit lists cell count, replicate 1 = 395. Silencing of CR18228 (pseudo) [DRSC15317] gave: infection score, replicate 1 = 4.92; cell count, replicate 1 = 7079. Silencing of CG2608 [DRSC02709] came out at: infection score, replicate 1 = 11.7; cell count, replicate 1 = 6323. Against Ilk (Integrin linked kinase) [DRSC11868], the values are infection score, replicate 1 = 2.25; cell count, replicate 1 = 6759. Knock-down of CG46441 [DRSC15561] resulted in: infection score, replicate 1 = 6.44; cell count, replicate 1 = 6161. CG46441 [DRSC24659] scored infection score, replicate 1 = 6.69; cell count, replicate 1 = 7130.

l(2)10685 (lethal (2) 10685) [DRSC00665] showed infection score, replicate 1 = 1.8; cell count, replicate 1 = 6166. l(2)10685 (lethal (2) 10685) [DRSC27739] showed infection score, replicate 1 = 4.44; cell count, replicate 1 = 6874. Against CG5098 [DRSC06915] the deposit lists infection score, replicate 1 = 11.3; cell count, replicate 1 = 6677. CG5098 [DRSC24664] scored infection score, replicate 1 = 4.88; cell count, replicate 1 = 6412. CG14109 [DRSC10112] gave infection score, replicate 1 = 0.85; cell count, replicate 1 = 6448. With knock-down of CG14109 [DRSC25337], the record shows infection score, replicate 1 = 6.48; cell count, replicate 1 = 5477.

Knock-down of Syn1 (Syntrophin-like 1) [DRSC11803] gave: infection score, replicate 1 = 5.07; cell count, replicate 1 = 6171. Syn1 (Syntrophin-like 1) [DRSC11804] gave infection score, replicate 1 = 0.91; cell count, replicate 1 = 6504. Against Syn1 (Syntrophin-like 1) [DRSC30039] the deposit lists infection score, replicate 1 = 15.3; cell count, replicate 1 = 6117.
